Percent effect of library compounds

Each number is a percent effect as filed. The controls that fix the scale are not given in the record; negative values are as filed. Many other results are left out here, so strong results are more common than in the screen.

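Growth of Mycobacterium tuberculosis over 3 days (7H9 medium with glucose and tyloxapol); the read-out is not stated. Compounds at 500 µM. Direction is inferred from retests: higher values go with more growth inhibition. About 18,000 compounds were tested under these conditions; 7.9% (about 1,400) showed 50% or more at least once.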

NCC(=O)Nc1ccccc1-n1cncn1 read 3.477%.
CCn1cc(OCCOCC2CCCO2)cn1 (stereo unspecified) read 14.26%.
Fc1cc(Cl)cnc1N1CCCNCC1 read 58.84%.
COc1ccc(OC)c(NC(=O)CNC(C)C)c1 read 33.1%.
N#Cc1ccccc1CN1CCC(CO)CC1 read 27.21%.
COc1ncccc1CNS(=O)(=O)C1CC1 read -8.416%.
CCN1CCN(Cc2ccc3c(c2)OCO3)CC1 read 7.907%.
NC(=O)CCC(=O)c1ccc2c(c1)OCCO2 read 34.72%.
C[C@@H](N)C(=O)N1Cc2ccccc2C1 read 5.562%.
Cc1ccnc(CN)n1 read 7.061%.
Cc1ccsc1CNC(=O)C(C)n1cncn1 (stereo unspecified) read -14.2%.
COc1cccc(OC2CNC2)c1 read 57.44%.
CCC(CC)(CNC(=O)Cc1cc(C)on1)S(C)(=O)=O read -8.299%.
CC(C(=O)Nc1nc2c(s1)CCCC2)n1cncn1 (stereo unspecified) read 5.101%.
CN(Cc1nccs1)C(=O)C1COc2ccccc2C1 (stereo unspecified) read 63.35%.
NS(=O)(=O)N(Cc1cccs1)C1CC1 read 20.6%.
O=C(NCCc1nc(C2CC2)no1)c1cnco1 read -4.467%.
Cc1cccnc1NCCNC1CSCCSC1 read 65.28%.
CNc1ccc(N)nc1 read -1080%.
Cc1cccc(NCC2CCN(CCS(C)(=O)=O)C2)n1 (stereo unspecified) read 4.709%.
CC(CN)(CO)CO read -5.271%.
CS(=O)(=O)c1ccc(CN)cc1C(F)(F)F read 18.44%.
CSCC(N)c1ccccc1 (stereo unspecified) read 36.41%.
CC(CO)NC(=O)Nc1nc(-c2ccccc2)ns1 (stereo unspecified) read -6.699%.
c1cn2c(n1)CN(Cc1nc(C3CC3)no1)CC2 read 22.12%.
CCOc1ccc2c(c1)C(N)CCO2 (stereo unspecified) read 46.06%.
COCc1nn(CC(=O)c2cc(F)ccc2F)c(=O)o1 read 4.209%.
Cc1noc(C)c1CN(C)C(=O)NCC(C)N(C)C (stereo unspecified) read -10.67%.
NCCC1CCCN(C(=O)c2c(O)cccc2O)C1 (stereo unspecified) read 1.443%.
CC(=O)N1CCCN(S(=O)(=O)c2cnn(C)c2)CC1 read -5.24%.
COc1ccc2[nH]c(C(=O)NCC3CCCO3)cc2c1 (stereo unspecified) read 75.75%.
NC(=O)C1CCN(CCCOc2ccccc2)CC1 read 7.649%.
Cc1cnn(CC(C)NCCC(=O)NC(C)C)c1 (stereo unspecified) read -9.714%.
CCSc1nc2ccccc2c(=O)n1CCCO read 86.37%.
OCCN1CCN(c2ccc(CO)nn2)CC1 read -11.86%.
Nc1nc(C2CC(O)C2)cc(N2CC(O)C2)n1 (stereo unspecified) read 10.06%.
Cc1csc(C(=O)N[C@@H](C)C(N)=O)c1I read 12.94%.
OCC1(O)CCCN(Cc2ccc3ccccc3n2)C1 (stereo unspecified) read -42.59%.
COCCNC1CCCc2cccnc21 (stereo unspecified) read 3.563%.
CCn1cc(C(=O)Nc2ccc(Br)cn2)cn1 read 0.4415%.

From ChEMBL document CHEMBL3988442, “University of Dundee, Small-Polar-MMV Screening Library” (2021).